# Test results reported in PubChem BioAssay AID602481 (Broad Institute, 2012).
# Only a part is listed here, and it is no random draw. Some salts or complexes appear as unconnected parts, following the source record. Active and inactive are the calls of the source. No stated cut-off is given here; in the data, active means inhibition above about 40%; inconclusive means no clear call, values can overlap the other calls; inactive means below that.
# System: 7,8-diaminopelargonic acid synthase BioA (Mycobacterium tuberculosis)
# Assay: M. tuberculosis BioA enzyme inhibitors, primary screen, biochemical, plate reader, single point, HTS (AID 602481)
# Settings: purified M. tuberculosis BioA enzyme, at 9.99 µM, active compounds read high
row,SMILES,inhibition
1,CP(=O)(Nc1ccc(Cl)cc1Cl)Oc1ccccc1 (centres undefined),inactive: 2.57%
2,O=C1C(O)=C([N+](=O)[O-])C(=O)C(O)=C1[N+](=O)[O-],inactive: -0.799%
3,COc1ccccc1OP(C)(=O)Nc1ccc(C)c(C)c1 (centres undefined),inactive: -1.06%
4,O=[N+]([O-])c1cc([N+](=O)[O-])c(Nc2ccccn2)c([N+](=O)[O-])c1,inactive: 1.71%
5,COc1ccccc1OP(C)(=O)Nc1ccc(C)cc1C (centres undefined),inactive: 0.549%
6,CP(=O)(Nc1ccccn1)Oc1ccccc1 (centres undefined),inactive: -0.584%
7,CCc1ccc(OP(C)(=O)O)cc1,inactive: -2.17%
8,COc1ccccc1OP(C)(=O)Nc1ccc(Br)cc1 (centres undefined),inactive: -2.26%
9,COc1ccc(OP(C)(=O)Nc2ccccn2)cc1 (centres undefined),inactive: -1.43%
10,CN(C)CCOC(=O)C(O)(c1ccccc1)C1CCCC1 (centres undefined),inactive: -2.07%
11,COc1ccccc1OP(C)(=O)Nc1ccccc1Br (centres undefined),inactive: 0.003%
12,CC(C)(C)c1ccc(OP(C)(=O)O)cc1,inactive: 1.66%
13,CP(=O)(Nc1ccc(Cl)cc1)Oc1ccc(F)cc1 (centres undefined),inactive: 1.54%
14,CCN(CC)CC(O)COC(=O)C(O)(c1ccccc1)C1CCCCC1 (centres undefined),inactive: 1.97%
15,O=C(OCCCN1CCCC1)C(O)(c1ccccc1)C1CCCCC1 (centres undefined),inactive: -0.0455%
16,COc1ccccc1OP(C)(=O)Nc1c(C)n(C)n(-c2ccccc2)c1=O (centres undefined),inactive: 1.2%
17,CCc1ccc(OP(C)(=O)Nc2cccnc2)cc1 (centres undefined),inactive: -0.731%
18,CP(=O)(Oc1ccccc1)N1CCOC1=O (centres undefined),inactive: -1.17%
19,CCOC(=O)c1ccc(NP(C)(=O)Oc2ccc(Cl)cc2)cc1 (centres undefined),inactive: 2.04%
20,CP(=O)(OC12CC3CC(CC(C3)C1)C2)OC12CC3CC(CC(C3)C1)C2,inactive: -1.34%
21,Cc1cc(-c2cccc3ccccc23)c(C)cn1.O=[N+]([O-])c1cc([N+](=O)[O-])c(O)c([N+](=O)[O-])c1,inactive: 0.547%
22,Cc1c(C(c2ccc3c(c2)OCO3)c2c(C)n(C)n(-c3ccccc3)c2=O)c(=O)n(-c2ccccc2)n1C.O=[N+]([O-])c1cc([N+](=O)[O-])c(O)c([N+](=O)[O-])c1,inactive: -2.03%
23,COc1ccc(OP(C)(=O)Nc2cccc(Br)c2)cc1 (centres undefined),inactive: 3.63%

row,SMILES,inhibition
1,CN(C)CCOC(=O)C(O)(c1ccccc1)C1CCCCC1 (centres undefined),inactive: -0.735%
2,COc1ccc(NP(C)(=O)Oc2ccccc2OC)cc1 (centres undefined),inactive: -2.04%
3,CP(=O)(Nc1ccc2c(c1)OCCO2)Oc1ccccc1 (centres undefined),inactive: 0.75%
4,Cc1ccccc1NP(C)(=O)Nc1ccccc1C,inactive: -1.84%
5,CCOP(C)(=S)SCC(=O)NC(C)(CC)C(=O)O (centres undefined),inactive: -2.13%
6,O=C(OCCN1CCN(CCOCc2ccccc2)CC1)C(O)(c1ccccc1)c1ccccc1,inactive: -1.75%
7,COc1ccc2c(c1O)-c1c(O)c(OC)cc3c1[C@H](C2)[N+](C)(C)CC3.O=[N+]([O-])c1cc([N+](=O)[O-])c([O-])c([N+](=O)[O-])c1[O-],inactive: -0.748%
8,O=[N+]([O-])c1cc([N+](=O)[O-])c(Nc2ccc(Cl)cc2)c([N+](=O)[O-])c1,inactive: 1.21%
9,CP(=O)(Nc1ccccc1F)Oc1ccccc1 (centres undefined),inactive: -3.83%
10,Cc1c([N+](=O)[O-])cc([N+](=O)[O-])c(Br)c1[N+](=O)[O-],inactive: -0.621%
11,CCN(CC)CCCOC(=O)C(O)(c1ccccc1)C1CCCCC1 (centres undefined),inactive: -3.04%
12,CP(=O)(Nc1ccccc1)Oc1ccc(F)cc1 (centres undefined),inactive: -1.53%
13,CCCCCOc1ccc(NP(C)(=O)Oc2ccc(Cl)cc2Cl)cc1 (centres undefined),inactive: 0.671%
14,O=[N+]([O-])c1cc([N+](=O)[O-])c(OC2CCCCC2O)c([N+](=O)[O-])c1 (centres undefined),inactive: -2.73%
15,CCOC(=O)c1ccc(NP(C)(=O)Oc2ccc(F)cc2)cc1 (centres undefined),inactive: 5.39%
16,CC1=NCCc2c1[nH]c1ccccc21.O=[N+]([O-])c1cc([N+](=O)[O-])c(O)c([N+](=O)[O-])c1,inactive: -1.66%
17,O=C(O)c1cccc(Nc2c([N+](=O)[O-])cc([N+](=O)[O-])cc2[N+](=O)[O-])c1,inactive: 6.77%
18,Cc1ccc(C)c(NP(C)(=O)Oc2ccccc2)c1 (centres undefined),inactive: -0.155%
19,Cc1cc(C)cc(OP(C)(=O)Nc2ccccn2)c1 (centres undefined),inactive: -0.136%
20,COc1ccccc1OP(C)(=O)Nc1cccc(Br)c1 (centres undefined),inactive: -0.241%
21,Cc1cc(C)cc(OP(C)(=O)Nc2ccc(C)cc2C)c1 (centres undefined),inactive: 0.0135%
22,O=[N+]([O-])c1cc([N+](=O)[O-])c(-c2cnn(-c3ccccc3)c2)c([N+](=O)[O-])c1,inactive: -0.24%
23,Cc1nc2ccc3ccccc3c2s1.O=[N+]([O-])c1cc([N+](=O)[O-])c(O)c([N+](=O)[O-])c1,inactive: -0.035%

row,SMILES,inhibition
1,O=[N+]([O-])c1cc([N+](=O)[O-])c(-n2nnc3ccccc32)c([N+](=O)[O-])c1,inactive: -2.01%
2,CN(Cc1cccnc1)C(=O)COc1ccc(Cl)c(Cl)c1.O=[N+]([O-])c1cc([N+](=O)[O-])c(O)c([N+](=O)[O-])c1,inactive: 2.86%
3,COc1ccccc1OP(C)(=O)Nc1c(C)cccc1C (centres undefined),inactive: 2.25%
4,CCCOc1ccc(NP(C)(=O)Oc2ccc(Cl)cc2)cc1 (centres undefined),inactive: 1.57%
5,CCOC(=O)C(CC)C1=NC(C)(C)Cc2ccccc21.O=[N+]([O-])c1cc([N+](=O)[O-])c(O)c([N+](=O)[O-])c1 (centres undefined),inactive: -2.08%
6,CC1=C2N=C(C=C3N=C(C(C)=C4[N-][C@@](C)([C@@H]5N=C1[C@](C)(CCC(=O)NC[C@@H](C)OP(=O)([O-])O[C@H]1[C@@H](O)[C@@H](n6cnc7cc(C)c(C)cc76)O[C@@H]1CO)[C@H]5CC(N)=O)[C@@](C)(CC(N)=O)[C@@H]4CCC(N)=O)[C@@](C)(CC(N)=O)[C@@H]3CCC(N)=O)C(C)(C)[C@@H]2CCC(N)=O.[C-]#N.[Co+3],inactive: 2.89%
7,O=[N+]([O-])c1cc([N+](=O)[O-])c(Nc2nnnn2CCO)c([N+](=O)[O-])c1,inactive: 0.85%
8,CP(=S)(Nn1cnnc1)Oc1ccccc1 (centres undefined),inactive: 2.78%
9,CCOC(=O)c1ccc(NP(C)(=O)Oc2ccc(OC)cc2)cc1 (centres undefined),inactive: 2.96%
10,O=[N+]([O-])c1cc([N+](=O)[O-])c(O)c([N+](=O)[O-])c1.c1ccc(Oc2ccncc2)cc1,inactive: 2.08%
11,CCOP(C)(=S)SCC(=O)NC(C)C(=O)O (centres undefined),inactive: -2.58%
12,CP(=O)(Nc1ccccn1)Oc1ccc(Cl)cc1 (centres undefined),inactive: -2.45%
13,CP(=O)(Oc1ccccc1)OC(c1ccccc1)C(F)(F)F (centres undefined),inactive: -1.61%
14,Cc1cccc(C)c1OP(C)(=O)Nc1ccc(SC(F)(F)F)cc1 (centres undefined),inactive: -1.94%
15,Cc1ccc(Nc2c([N+](=O)[O-])cc([N+](=O)[O-])cc2[N+](=O)[O-])cc1,inactive: -0.689%
16,CP(=O)(Nc1ccc(SC(F)(F)F)cc1)Oc1ccc(Cl)cc1 (centres undefined),inactive: 1.77%
17,CCc1ccc(OP(C)(=O)N2CCN(c3ccc([N+](=O)[O-])cc3)CC2)cc1 (centres undefined),inactive: 1.75%
18,Cc1ccc(NP(C)(=O)Oc2ccccc2)c(C)c1 (centres undefined),inactive: -2.49%
19,COc1ccccc1OP(C)(=O)Nc1ccc(C)cc1 (centres undefined),inactive: -1.83%
20,CCOC(=O)c1ccc(NP(C)(=O)Oc2ccccc2)cc1 (centres undefined),inactive: 0.134%
21,Cc1cc(C)cc(OP(C)(N)=O)c1 (centres undefined),inactive: -2.09%
22,COc1ccc(OP(C)(=O)Nc2cccc(F)c2)cc1 (centres undefined),inactive: -1.91%
23,O=[N+]([O-])c1cc([N+](=O)[O-])c(Nc2cccnc2)c([N+](=O)[O-])c1,inactive: 2.21%
